Data on three substances can be found in article PMC11620640.

For the assay, the target named is SARS-CoV-2 prototype (PT) spike receptor binding domain (RBD) (SARS-CoV-2) (UniProt P0DTC2). As to the kind of experiment: SPR.
Take rdACE2 L24Q: the Kd turned out to be 54.4 nM.
Next, rdACE2 R353K: 50.3 nM.
In turn, rdACE2 E38D showed a Kd of 43.4 nM.

The term Kd denotes the concentration at which binding is half-saturated. A low value points to a tighter complex.
